Reference: PubChem BioAssay AID624099 (ICCB-Longwood, 2012)
The whole screen tested about 21,000 reagents; below is an unselected part. 497 of them (2.4%) count as active. 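Higher z means weaker E2 silencing; only reporter increases were scored, and knock-downs that hurt cell survival may mask genuine repressor factors.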 Entries without a mark were called inactive. The numbers tell different reagents against one gene apart.

Assay: 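Human genes that papillomavirus E2 requires to repress the HPV18 LCR promoter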 (primary screen)
Cells: human C33A cervical carcinoma cells (HPV-negative) stably expressing BPV1 E2 and an HPV18 LCR luciferase reporter
Knock-down reagent: siRNA pool against human genes, 40 nM
Timing: 72 h
Measured: 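HPV18 LCR reporter light per well, converted to plate-wise z-scores that exclude control wells, and averaged over triplicate plates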
Direction: mean z-score and z-score: higher = stronger reporter signal, weaker E2 silencing
Rule for the call: 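Hit if mean z-score reaches 2 and two or more of three replicate z-scores also reach 2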

| Gene | pool no. | mean z-score | z-score, replicate A | z-score, replicate B | z-score, replicate C |
| --- | --- | --- | --- | --- | --- |
| IGSF9B | 1 | -0.31 | -0.5 | 0.04 | -0.47 |
| IGSF9B | 2 | -0.7 | -0.46 | -0.74 | -0.91 |
| KMT2C | 1 | 1.32 | 1.3 | 1.53 | 1.13 |
| GPI | 1 | -0.45 | -0.27 | -0.47 | -0.61 |
| BPIFB9P | 1 | -0.6 | -0.89 | -0.45 | -0.45 |
| TRPM7 | 1 | -0.32 | -0.17 | -0.61 | -0.16 |
| SPPL2C | 1 | -0.23 | -0.23 | -0.15 | -0.3 |
| ZSCAN10 | 1 | -0.34 | -0.4 | -0.08 | -0.54 |
| KIF5C | 1 | 1.27 | 1.11 | 1.31 | 1.38 |
| PPP1R13L | 1 | 0.18 | 0.22 | 0.29 | 0.03 |
| SUPT6H | 1 | -2.21 | -2.26 | -2.1 | -2.27 |
| C1GALT1C1 | 1 | -1.5 | -1.71 | -1.87 | -0.91 |
| POLM | 1 | 0.2 | 0.28 | 0.15 | 0.18 |

As entered above.
Value of C1GALT1C1 under “z-score, replicate C”: -0.91
Under “z-score, replicate A”, PPP1R13L shows 0.22

Next entries follow:
| Gene | pool no. | mean z-score | z-score, replicate A | z-score, replicate B | z-score, replicate C |
| --- | --- | --- | --- | --- | --- |
| PDGFRL | 1 | -0.32 | -0.37 | -0.94 | 0.37 |
| VTI1B | 1 | 1.23 | 1.31 | 1.26 | 1.12 |
| PARP2 | 1 | -0.51 | -0.51 | -0.43 | -0.6 |
| STX1B | 1 | 0.26 | 0.48 | 0.19 | 0.13 |
| SLC43A1 | 1 | 1.65 | 1.43 | 1.84 | 1.68 |
| FAM32A | 1 | -0.15 | -0.11 | -0.45 | 0.11 |
| UBE2E1 | 1 | 0.66 | 0.46 | 0.77 | 0.76 |
| CIZ1 | 1 | 0.43 | 0.01 | 0.69 | 0.6 |
| METTL18 | 1 | 0.12 | 0.04 | 0.1 | 0.21 |
| EXOC8 | 1 | -0.11 | -0.01 | -0.13 | -0.19 |
